Literature values as cited in PMC5615050 (Scientific Reports, 2017).

Tested on: NA with dual mutation (H274Y and I222R)
Settings: cited from earlier work

| Compound | fold reduction in NA inhibition caused by dual mutation (H274Y and I222R) |
| --- | --- |
| CCOC(=O)C1=C[C@@H](OC(CC)CC)[C@H](NC(C)=O)[C@@H](N)C1 | ~ 12,000 fold |
| peramivir | ~ 7,500 fold |
